A mixed list of measured activities; the numbers were collected in NIAID ChemDB.

Common to all: tests in culture; agent: HIV-1; cell line: MT-4; read-out: EC50

Rows are shuffled and stem from different studies. ECn is the concentration giving n% inhibition of infection, replication or growth. An empty or dashed field is not shown.

smiles,strain or isolate,changes,method,value
Fc1cccc(F)c1[C@@H]1SCc2nc3ccccc3n21,ADP/141,-,cytopathic effect,1.63 µM
CC(C)=CCc1c(-c2ccc(O)cc2O)oc2c(CC=C(C)C)c(O)cc(O)c2c1=O,IIIB,-,cytopathic effect / MTT,>100 µg/mL
C#Cc1ccc(Nc2nccc(Oc3c(C)cc(-c4cn(Cc5ccc(C#N)cc5)nn4)cc3C)n2)cc1,RES056,-,MTT,>7.18 µM
Nc1nc(-c2ccc(Br)cc2Br)c(SCC(=O)Nc2ccc(Cl)cc2Cl)s1,IIIB,-,MTT,>20.73 µM
c1ccc(CNCc2ccc(CN3CCCNCCNCCCNCC3)cc2)nc1,IIIB,-,cytopathic effect / MTS,0.0123 µM
CC1(C)C=Cc2c(ccc(C3COc4cc(O)cc(O)c4C3=O)c2O)O1,IIIB,-,MTT,>100 µg/mL
Cc1ccnc2c1NC(=O)c1cccnc1N2C1CC1,IIIB,-,cytopathic effect,0.07 µM
CCCc1nnc(C[C@H](C[C@H](O)CN2CCN(C(C)(C)c3ncc(-c4ccc(F)cc4)o3)C[C@H]2C(=O)NCC(F)(F)F)C(=O)N[C@H]2c3ccccc3OC[C@H]2O)o1,K-60 Clinical isolate,PR-L10I M46I I54V Q58E L63P I64V V77I V82F I84V L90M I93L,p24,<0.016 µM
C#Cc1ccc(Nc2nccc(Oc3c(C)cc(-c4cn(CCc5ccccc5)nn4)cc3C)n2)cc1,IIIB,K103N,MTT,0.42 µM
CN=C1CN=C(c2ccc[nH]2)c2cc(Cl)ccc2N1,IIIB,-,cytopathic effect / MTT,>46 µM
CCCc1nnc(C[C@H](C[C@H](O)CN2CCN(C(C)(C)c3ncc(-c4ccc(Cl)cc4)o3)C[C@H]2C(=O)NCC(F)(F)F)C(=O)N[C@H]2c3ccccc3OC[C@H]2O)o1,K-60 Clinical isolate,PR-L10I M46I I54V Q58E L63P I64V V77I V82F I84V L90M I93L,p24,<0.016 µM
COc1c2c(cc3c1CCC(C)(C)O3)OC[C@@H](c1ccc(O)c(CC=C(C)C)c1O)C2,IIIB,-,MTT,>10 µg/mL
CC(C)(c1ncc(-c2ccc(F)cc2)o1)N1CCN(C[C@@H](O)C[C@@H](Cc2nnco2)C(=O)N[C@H]2c3ccccc3OC[C@H]2O)[C@H](C(=O)NCC(F)(F)F)C1,Q-60 Clinical isolate,PR-L10I N37S R41K M46I I54V I62V L63P A71V V77I V82A L90M I93L,p24,<0.031 µM
O=C1c2ccccc2C(=O)N1CCOC(=S)N(C(=O)c1ccco1)c1ccc([N+](=O)[O-])cc1,A17,RT-K103N Y181C,cytopathic effect / MTT,>100 µM
Cc1cc(C(O)c2ccc3ccccc3c2)nc(Nc2ccc(C#N)cc2)n1,IIIB,-,MTT,5.458 µM
CC1(C)OC2=C(CC3C=C(c4cc(O)cc(O)c4)OC3=C2)CC1O,IIIB,-,MTT,>20 µg/mL
CC(C)=CCN1c2cc(Cl)cc3[nH]c(=S)n(c23)C[C@@H]1C,-,RT-M41L T215Y A98G,-,<0.8 µM
Fc1cccc(F)c1[C@H]1SCc2nc3ccccc3n21,RF,-,cytopathic effect,0.31 µM
CC[C@H](C)[C@H](NC(=O)c1ccccc1SSc1ccccc1C(=O)N[C@H](C(=O)O)[C@@H](C)CC)C(=O)O,-,PR-L10R M46I L63P V82T I84V,p24 / RT activity,1.6 µM
C#Cc1ccc(Nc2nccc(Oc3c(C)cc(-c4cn(Cc5ccc(O)cc5)nn4)cc3C)n2)cc1,IIIB,K103N,MTT,0.054 µM
Cc1cc(C)cc(Cc2[nH]c(=S)[nH]c2C(C)C)c1,IIIB,-,cytopathic effect / MTT,0.62 µM
O=c1[nH]cnc2c1ncn2[C@H]1CC[C@@H](CO)O1,IIIB,-,cytopathic effect,0.46 µM
C1CNCCNCCCN(CCCN2CCCNCCNCCCNCC2)CCNC1,NL4-3,-,p24 / ELISA,0.3 µg/mL
CC(C)=CCN1Cc2cc(Cl)cc3[nH]c(=S)n(c23)C[C@@H]1C,Recombinant mutant,RT-A98S,cytopathic effect / MTT,0.045 µM
O=C(CSc1nnnn1-c1cccc2ccccc12)Nc1ccc(Cl)cc1Cl,-,-,p24,<10 µM
Cc1cnc(Nc2ccc(C#N)cc2)nc1C(O)c1ccc2ccccc2c1,IIIB,-,MTT,0.6 µM
COc1ccc2c(c1)O[C@H]1c3ccc(O)cc3OC[C@@H]21,IIIB,-,MTT,>100 µg/mL
CC(=O)c1ccc(C)cc1NC(C(N)=O)c1c(Cl)cccc1Cl,IIIB,RT-E138K,cytopathic effect / MTT,0.132 µM
Nc1nc(-c2ccc(Br)cc2Br)c(SCC(=O)Nc2ccccc2F)s1,IIIB,-,MTT,>24.94 µM
CC(C)(C)NC(=O)[C@@H]1C[C@@H]2CCCC[C@@H]2CN1C[C@@H](O)[C@H](Cc1ccccc1)NC(=O)[C@H](CC(N)=O)NC(=O)c1ccc2ccccc2n1,NL4-3,L10I G48V I54V A71V I84V L90M SQV resistant,-,>1 µM
S=C(NCCc1ccccn1)Nc1ccc(Br)cn1,N119 nevirapine-resistant (RT Y181C),RT-Y181C,cytopathic effect / MTT,>100 µM
Cc1ccccc1NC(=O)CSc1sc(N)nc1-c1ccc(Br)cc1Br,IIIB,-,MTT,>23.96 µM
COCOc1ccc(/C=C/C(=O)c2c(OCOC)cc(OCOC)c(CC=C(C)C)c2O)cc1OCOC,IIIB,-,cytopathic effect / MTT,>100 µg/mL
Cc1nnc(C[C@H](C[C@H](O)CN2CCN(C(C)(C)c3ncc(-c4ccc(F)cc4)o3)C[C@H]2C(=O)NCC(F)(F)F)C(=O)N[C@H]2c3ccccc3OC[C@H]2O)o1,Q-60 Clinical isolate,PR-L10I N37S R41K M46I I54V I62V L63P A71V V77I V82A L90M I93L,p24,<0.031 µM
Nc1ccccc1NC(=O)CSc1sc(Cl)nc1-c1ccc(Br)cc1Br,IIIB,E138K,MTT,7.65 µM
O=C(CSc1nnnn1-c1ccc2c(c1)OCO2)Nc1ccccc1Cl,-,-,p24,<10 µM
C#Cc1ccc(Nc2nccc(Oc3c(C)cc(-c4cn(CCC(=O)OC)nn4)cc3C)n2)cc1,RES056,-,MTT,>23.76 µM
O=C1c2ccccc2C(=O)N1CCOC(=S)N(C(=O)c1cccs1)c1ccc(Cl)cc1,IIIB,RT-K103R V179D P225H,cytopathic effect / MTT,>100 µM
C#Cc1ccc(Nc2nccc(Oc3c(C)cc(-c4cn(-c5cccc(C(=O)OC)c5)nn4)cc3C)n2)cc1,IIIB,K103N,MTT,0.043 µM
Cc1cn([C@@H]2O[C@H](CO[Si](C)(C)C(C)(C)C)C3(OS(=O)(=O)C=C3N)[C@H]2O[Si](C)(C)C(C)(C)C)c(=O)n(C)c1=O,IIIB Recombinant wild type,-,cytopathic effect / MTT,0.00422 µM
CC(C)(O)CCc1c(-c2ccc(O)cc2O)oc2c3c(cc(O)c2c1=O)OC(C)(C)C=C3,IIIB,-,cytopathic effect / MTT,>100 µg/mL
Cc1ccccc1NC(=O)CSc1sc(Cl)nc1-c1ccc(Br)cc1Br,IIIB,-,MTT,>26.94 µM
O=C1N(Cc2ccc(CO)cc2)[C@H](Cc2ccccc2)[C@H](O)[C@@H](O)[C@@H](Cc2ccccc2)N1Cc1ccc(CO)cc1,IIIB,PR-V82A,cytopathic effect / XTT,0.12 µM
Cc1cc(C)c(-n2nnnc2SCC(=O)Nc2ccc(-n3cccn3)cc2)c(C)c1,-,-,p24,<10 µM
CCCCCCCSc1nsc(NC(=O)Nc2ccccc2)n1,NL4-3,AMD3100-resistant,cytopathic effect,19.1 µM
O=C(CSc1sc(Cl)nc1-c1ccc(Br)cc1Br)Nc1cccnc1Cl,IIIB,E138K,MTT,8.28 µM
Cc1ccc(-n2nnnc2SCC(=O)Nc2ccccc2[N+](=O)[O-])cc1,-,-,p24,<10 µM
CCc1nc(SCC(N)=O)n(COCc2ccccc2)c1Cc1cc(C)cc(C)c1,IIIB,-,cytopathic effect / MTT,2.48 µM
Cc1cccc(C)c1-n1nnnc1SCC(=O)Nc1ccccc1Cl,-,-,p24,<10 µM
Cc1cn([C@H]2C[C@H](N=[N+]=[N-])[C@@H](CO)O2)c(=O)[nH]c1=O,HXB2D,-,RT activity,0.01 µM
Cc1cc([N+](=O)[O-])ccc1NC(=O)CSc1sc(Cl)nc1-c1ccc(Br)cc1Br,IIIB,-,MTT,3.33 µM
CCc1[nH]c(=S)[nH]c1Cc1cc(C)cc(C)c1,IIIB,-,cytopathic effect / MTT,4.46 µM
Cc1cn([C@H]2C[C@H](N=[N+]=[N-])[C@@H](COC(=O)c3ccncc3)O2)c(=O)[nH]c1=O,IIIB,-,p24,0.007 µM
O=C1c2ccccc2C(=O)N1CCOC(=S)N(C(=O)c1ccccc1)c1ccc(Cl)cc1,N119 nevirapine-resistant (RT Y181C),RT-Y181C,cytopathic effect / MTT,>100 µM
CCOCn1c(SCC(N)=O)nc(C(C)C)c1Cc1cc(C)cc(C)c1,IIIB,-,cytopathic effect / MTT,0.31 µM
Fc1cccc(F)c1C1SCc2nc3ccccc3n21,ADP/141,-,cytopathic effect,0.14 µM
CO[P@](=O)(c1cc(C)cc(/C=C/C#N)c1)c1c(C(N)=O)[nH]c2ccc(Cl)c(F)c12,BH10,Y181C/K103N,-,0.0035 µM
O=c1[nH]c(=S)[nH]c2c1C(c1ccc(Cl)cc1)c1c([nH]c(=S)[nH]c1=O)O2,IIIB,-,cytopathic effect,56.8 µM
CC(C)c1ccccc1-n1nnnc1SCC(=O)Nc1ccccc1Cl,-,-,p24,<10 µM
Cc1ccnc2c1NC(=O)c1cccnc1N2C1CC1,IIIB,RT-E138K,cytopathic effect / MTT,0.024 µM
Cc1cc(C)c(-n2nnnc2SCC(=O)Nc2ccccc2C(F)(F)F)c(C)c1,-,-,p24,<10 µM
COc1ccc(S(=O)(=O)N(CC(C)C)C[C@@H](O)[C@H](Cc2ccccc2)NC(=O)O[C@H]2CO[C@H]3OCC(F)(F)[C@H]32)cc1,NL4-3,L10F V32I M46I I45M A71V I84V APV resistant,-,0.43 µM
COc1c(-c2ccc(O)c(O)c2)oc2c(CC=C(C)C)c(O)c(CC=C(C)C)c(O)c2c1=O,IIIB,-,cytopathic effect / MTT,>200 µg/mL
C1CNCCNCCCN(CCCN2CCCNCCNCCCNCC2)CCNC1,IIIB,-,cytopathic effect / MTS,0.994 µM
Cc1cn([C@H]2C[C@H](N=[N+]=[N-])[C@@H](CO)O2)c(=O)[nH]c1=O,IIIB,Y181C,MTT,0.008 µM
CCOCn1c(SCC(N)=O)nc(C(C)C)c1Cc1ccccc1,IIIB,-,cytopathic effect / MTT,10.96 µM
Cc1nnc(C[C@H](C[C@H](O)CN2CCN(Cc3ccc(-c4ccc(Cl)cc4)o3)C[C@H]2C(=O)NCC(F)(F)F)C(=O)N[C@H]2c3ccccc3OC[C@H]2O)o1,Q-60 Clinical isolate,PR-L10I N37S R41K M46I I54V I62V L63P A71V V77I V82A L90M I93L,p24,<0.031 µM
C#Cc1ccc(Nc2nccc(Oc3c(C)cc(-c4cn(Cc5ccc(S(N)(=O)=O)cc5)nn4)cc3C)n2)cc1,IIIB,L100I,MTT,0.61 µM
CC(C)c1nc(SCC(N)=O)n(Cc2ccncc2)c1CC1CCCCC1,IIIB,-,cytopathic effect / MTT,3.75 µM
CCn1c(=O)c(C)cn([C@@H]2O[C@H](CO[Si](C)(C)C(C)(C)C)C3(OS(=O)(=O)C=C3N)[C@H]2O[Si](C)(C)C(C)(C)C)c1=O,IIIB Recombinant wild type,-,cytopathic effect / MTT,0.018 µM

For reference, 8 entries again:

smiles | strain or isolate | changes | method | value
CCCCCCCSc1nsc(NC(=O)Nc2ccccc2)n1 | NL4-3 | AMD3100-resistant | cytopathic effect | 19.1 µM
C1CNCCNCCCN(CCCN2CCCNCCNCCCNCC2)CCNC1 | NL4-3 | - | p24 / ELISA | 0.3 µg/mL
Fc1cccc(F)c1C1SCc2nc3ccccc3n21 | ADP/141 | - | cytopathic effect | 0.14 µM
C1CNCCNCCCN(CCCN2CCCNCCNCCCNCC2)CCNC1 | IIIB | - | cytopathic effect / MTS | 0.994 µM
CCn1c(=O)c(C)cn([C@@H]2O[C@H](CO[Si](C)(C)C(C)(C)C)C3(OS(=O)(=O)C=C3N)[C@H]2O[Si](C)(C)C(C)(C)C)c1=O | IIIB Recombinant wild type | - | cytopathic effect / MTT | 0.018 µM
C#Cc1ccc(Nc2nccc(Oc3c(C)cc(-c4cn(CCc5ccccc5)nn4)cc3C)n2)cc1 | IIIB | K103N | MTT | 0.42 µM
Cc1cn([C@H]2C[C@H](N=[N+]=[N-])[C@@H](COC(=O)c3ccncc3)O2)c(=O)[nH]c1=O | IIIB | - | p24 | 0.007 µM
Cc1cc([N+](=O)[O-])ccc1NC(=O)CSc1sc(Cl)nc1-c1ccc(Br)cc1Br | IIIB | - | MTT | 3.33 µM